Pooled drug test results. Numbers come from NIAID ChemDB, via PubChem.

All rows: whole-cell or culture tests; species: Mycobacterium tuberculosis

ECn is the concentration giving n% inhibition of infection, replication or growth.

SMILES,strain or isolate,read by,tested at,measure,value
O=C1CCC(c2ccccc2)(c2ccccc2)O1,H37Rv,-,-,MIC,50 µg/mL
CC(=O)C1(C)Nc2cccc3cccc(c23)N1,H37Rv,BACTEC,12.8 µg/mL,inhibition,3%
CCN(CC(O)CO)c1ccccc1,H37Rv,-,-,MIC,>100 µg/mL
C[C@H](NCCNCC(c1ccccc1)c1ccccc1)C1CCCCC1,-,-,-,MIC,25 µM
COc1ccc(C)c2c1N(CC(O)CO)CCC2,H37Rv,-,-,MIC,100 µg/mL
COc1cc(CNCCNC[C@]2(C)CCC[C@]3(C)c4ccc(C(C)C)cc4CC[C@@H]23)cc(OC)c1OC,-,-,-,MIC,50 µM
CCCCCCc1cc(C(=O)N/N=C/c2ccc(O)c(OC)c2)c2ccccc2n1,H37Rv,BACTEC,12.5 µg/mL,inhibition,-6%
CC(C)=CCC/C(C)=C/CNCCN[C@H]1C[C@H]2CC[C@]1(C)C2(C)C,-,-,-,MIC,12.5 µM
CC1=NN(c2ccc([N+](=O)[O-])cc2)C(=O)C1[N+](=O)[O-],H37Rv,BACTEC,-,MIC bound,>12.8 µg/mL
CCOC(=O)Nc1cc(N)c([N+](=O)[O-])c(NC(C)C(=O)c2ccccc2)n1,H37Rv,-,-,EC50,>12.5 µg/mL
CC(NNC(=O)c1cc[n+]([B]C#N)cc1)c1ccc(Cl)cc1Cl,-,BACTEC,0.5 µM,inhibition,0%
CC(=O)c1ccc(NC(=O)CC(=O)Nc2ccc(C(C)=O)cc2)cc1,H37Rv,-,-,MIC,>100 µg/mL
O=C1CC(c2ccccc2O)Oc2ccccc21,H37Rv,-,-,EC50,>12.5 µg/mL
N=C1C=CC(=NCc2ccc(N)cc2)C=C1,H37Rv,BACTEC,12.5 µg/mL,inhibition,3%
O=C1OC(=O)c2cc(S(=O)(=O)O)ccc21,H37Rv,-,-,MIC,>100 µg/mL
CC(=O)ONc1nn2cc(-c3ccccc3)nc2s1,H37Rv,BACTEC,12.5 µg/mL,inhibition,20%
CCOC(=O)Nc1ccccn1,H37Rv,-,-,EC50,>12.5 µg/mL
OCCCCCNCCNCc1ccccc1Sc1ccccc1CO,-,-,-,MIC,12.5 µM
Nc1ccc(N=Nc2ccc(S(N)(=O)=O)cc2)c(O)c1,H37Rv,-,-,MIC,>100 µg/mL
COc1ccc(OC)c(CNCCNC2C3CC4CC(C3)CC2C4)c1,-,-,-,MIC,12.5 µM
CC(=O)Nc1ccccc1C(N)=S,H37Rv,-,-,MIC,100 µg/mL
CCCCCCCCCCCNCCNCCc1ccc(OC)c(OC)c1,-,-,-,MIC,12.5 µM
CCCCC(CC)CN1CN(CC(CC)CCCC)CC(C)(NCCNC(C)CCc2ccccc2)C1,-,-,-,MIC,25 µM
CO[C@H]1/C=C/O[C@@]2(C)Oc3c(C)c(O)c4c(=O)c(c5oc6cc(N7CCN(CC(C)C)CC7)cc(=O)c6nc5c4c3=C2O)NC(=O)/C(C)=C\C=C\[C@H](C)[C@H](O)[C@@H](C)[C@@H](O)[C@@H](C)[C@H](OC(C)=O)[C@@H]1C,31 (rifampin-resistant),-,-,MIC,0.1 µg/mL
c1ccc([Si](c2ccccc2)(c2ccccc2)c2ccccc2)cc1,H37Rv,-,-,MIC,100 µg/mL
O=C1C(Cl)=C(Nc2ccccn2)C(=O)c2ccccc21,H37Rv,BACTEC,-,MIC bound,≤12.5 µg/mL
CC(=O)C1CCOC1=O,H37Rv,-,-,MIC,>100 µg/mL
Fc1ccccc1CNCCNCCCCc1ccccc1,-,-,-,MIC,50 µM
CCNc1cccc(CC(=O)O)c1,H37Rv,-,-,MIC,>100 µg/mL
O=C(O)C1C2CC3C(OC(=O)C31)C2O,H37Rv,BACTEC,12.5 µg/mL,inhibition,16%
CCOC(=O)C(CC)(C(C)=O)c1nc2ccccc2o1,H37Rv,-,-,MIC,100 µg/mL
CC(C)c1ccc2c(c1)CC[C@H]1[C@](C)(CNCCNC[C@@H]3CC[C@H]4C[C@@H]3C4(C)C)CCC[C@]21C,-,-,-,MIC,50 µM
Cc1ccn2c(N=O)c(-c3ccccc3)nc2c1,H37Rv,BACTEC,-,MIC bound,≤12.5 µg/mL
C=CCN(CCNCCc1ccccc1OC)C1CCCC1,-,-,-,MIC,25 µM
C[n+]1c(-c2ccc(/C=N/NC(=O)N/N=C/c3ccc(-c4cn5ccccc5[n+]4C)cc3)cc2)cn2ccccc21.Cc1ccc(S(=O)(=O)[O-])cc1.Cc1ccc(S(=O)(=O)[O-])cc1,H37Rv,BACTEC,12.5 µg/mL,inhibition,99%
O=C(Nc1cc(Cl)cc(NC(=O)Oc2ccccc2)n1)Oc1ccccc1,H37Rv,-,-,EC50,<12.5 µg/mL
O=C(NCCO)c1c(CNC2CCCCC2)n([O-])c2ccccc2[n+]1=O,H37Rv,resazurin,6.25 µg/mL,inhibition,-18%
O=C1CC(c2ccc(O)cc2)Oc2ccccc21,H37Rv,-,-,EC50,>12.5 µg/mL
CC(C)C[C@@H](CO)NCCNC[C@]1(C)CCC[C@]2(C)c3ccc(C(C)C)cc3CC[C@@H]12,-,-,-,MIC,25 µM
CCOC(=O)Nc1cc2[nH]cnc2c(NC(c2ccccc2)c2ccccc2)n1,H37Rv,-,12.5 µg/mL,inhibition,0%
Nc1cc2oc3ccccc3c2cc1N,H37Rv,-,-,MIC,>100 µg/mL
COC(=O)[C@]1(C)CCC[C@]2(C)c3ccc(C(C)C)cc3C(=O)C[C@@H]12,H37Rv,BACTEC,-,MIC bound,>12.5 µg/mL
O=C(C(=O)c1cccc([N+](=O)[O-])c1)c1cccc([N+](=O)[O-])c1,H37Rv,-,-,MIC,>100 µg/mL
COc1cc2c(cc1OC)[C@@]13CCN4CC5CCO[C@H]6CC(=O)N2[C@H]1[C@H]6[C@H]5C[C@H]43,H37Rv,BACTEC,-,MIC bound,>12.5 µg/mL
CCOc1ccccc1CNCCNCc1ccccc1Cl,-,-,-,MIC,50 µM
C=C(OP(=O)(O)O)c1cc(Br)c(C)cc1C,H37Rv,-,-,MIC,>100 µg/mL
Cc1cc(S(=O)(=O)Nc2nnc3c(C(F)(F)F)cc(Cl)cn23)c(S)cc1Cl,H37Rv,BACTEC,12.5 µg/mL,inhibition,0%
CO[C@H]1/C=C/O[C@@]2(C)Oc3c(C)c(O)c4c(O)c(c(/C=N/N5CCN(C/C=C/c6ccccc6)CC5)c(O)c4c3C2=O)NC(=O)/C(C)=C\C=C\[C@H](C)[C@H](O)[C@@H](C)[C@@H](O)[C@@H](C)[C@H](OC(C)=O)[C@@H]1C,35 (rifampin-resistant),-,-,MIC,0.2 µg/mL
CCN(CC)CCSc1cc(-c2ccccc2)nc2cc(Cl)ccc12.Cl,H37Rv,-,-,MIC,12.5 µg/mL
[N-]=[N+]=CC(=O)OC[C@@H]1NC(=O)[C@H](COC(=O)C=[N+]=[N-])NC1=O,H37Rv,BACTEC,12.5 µg/mL,inhibition,9%
CCC(C)(C)NCCNCc1ccc(C(F)(F)F)cc1,-,-,-,MIC,25 µM
O=C(Nc1ccccc1)C(F)(F)F,H37Rv,-,-,MIC,100 µg/mL
CCCCC(CC)CN1CN(CC(CC)CCCC)CC(C)(NCCNCc2ccc(OC)cc2OC)C1,-,-,-,MIC,25 µM
O=C1CC(c2ccccc2)Oc2cc(F)ccc21,H37Rv,-,12.5 µg/mL,inhibition,15%
CN1CCN=C1c1ccc(NC(=O)Nc2ccc(NC(=O)Nc3ccc(C4=NCCN4C)cc3)cc2)cc1.Cl.Cl,H37Rv,BACTEC,128 µg/mL,inhibition,89%
ClC(Cl)(Cl)C(c1cccs1)c1cccs1,H37Rv,-,-,MIC,50 µg/mL
CC(Cc1ccc(Cl)cc1)NCCNC[C@]1(C)CCC[C@]2(C)c3ccc(C(C)C)cc3CC[C@@H]12,-,-,-,MIC,50 µM
OC(COc1ccccc1)COc1ccccc1,H37Rv,-,-,MIC,25 µg/mL
S=C(Nc1ccccn1)c1ccccn1,H37Rv,resazurin,-,MIC bound,>6.25 µg/mL
O=c1ccc(Cl)c[nH]1,H37Rv,-,-,MIC,>100 µg/mL
C[C@@H]1[C@H]2C[C@@H](C[C@H]1NCCNC1C3CC4CC(C3)CC1C4)C2(C)C,-,-,-,MIC,12.5 µM
Fc1ccc(CSC(=S)Nc2ccc(F)cc2)cc1,H37Rv,BACTEC,128 µg/mL,inhibition,100%
CCOC(=O)Nc1cc(NCC(O)CN(C)c2ccccc2)c([N+](=O)[O-])c(N)n1,H37Rv,-,-,EC50,<12.5 µg/mL
CCCCC(=O)NN(Cn1c(=S)sc2ccccc21)Cn1c(=S)sc2ccccc21,H37Rv,BACTEC,12.5 µg/mL,inhibition,52%
O=C1CC(c2ccccc2)Oc2ccc(I)cc21,H37Rv,-,-,EC50,>12.5 µg/mL
O=c1cc2oc3cc(O)c(O)cc3c(-c3ccccc3)c-2cc1O,H37Rv,BACTEC,12.5 µg/mL,inhibition,-30%
CCCCCCCCCCCCCCCCNc1ccc(CNCCNC[C@@H](C)O)cc1,-,-,-,MIC,50 µM

The last 4 rows once more:

SMILES | strain or isolate | read by | tested at | measure | value
CCCCC(=O)NN(Cn1c(=S)sc2ccccc21)Cn1c(=S)sc2ccccc21 | H37Rv | BACTEC | 12.5 µg/mL | inhibition | 52%
O=C1CC(c2ccccc2)Oc2ccc(I)cc21 | H37Rv | - | - | EC50 | >12.5 µg/mL
O=c1cc2oc3cc(O)c(O)cc3c(-c3ccccc3)c-2cc1O | H37Rv | BACTEC | 12.5 µg/mL | inhibition | -30%
CCCCCCCCCCCCCCCCNc1ccc(CNCCNC[C@@H](C)O)cc1 | - | - | - | MIC | 50 µM

Neighbouring rows are from separate reports. Percent inhibition refers to the dose given; in toxicity tests it is the harm to the cells. MIC bound: limit read from a one-dose screen. Blank or dashed fields: not listed here.